Results of unrelated studies side by side (data: NIAID ChemDB).

All rows: whole-cell or culture tests

A number after MIC or MFC names an inhibition level or a share of isolates. ECn: concentration that inhibits the pathogen or its effect by n%. Neighbouring rows are from separate reports. Blank or dashed fields: not listed here. Inhibition is in % at the dose shown (toxicity tests: loss of growth or viability).

smiles	read-out	strain or isolate	cells	read by	species	dose	changes	result
OC[C@H]1O[C@@H](n2c(Br)nc3cc(Cl)c(Cl)cc32)[C@H](O)[C@@H]1O	EC50	XBAF.4 (alaalacysarg593DEL)	MRC-5	hybridisation	Human cytomegalovirus			0.2 µM
CN1C(=O)[C@@H](Cc2ccccc2)NC1=S	inhibition		MT-4	cytopathic effect / XTT	HIV-2	1 µg/mL		0%
CCc1cn([C@@H]2O[C@H](CO)[C@@H](O)[C@@H]2O)c(=O)[nH]c1=O	inhibition	Ohtomo	HELF	plaque count	Varicella zoster virus	1000 µg/mL		63%
CSc1cc(-c2ccc(Br)cc2)c(C(=O)O)s1	MIC	A-280			Trichophyton mentagrophytes			50 µg/mL
CC(=O)ONc1ccc(S(=O)(=O)N(Cc2ccccc2)C[C@@H](O)[C@H](Cc2ccccc2)NC(=O)[C@H](CC(C)C)N2C(=O)c3ccccc3C2=O)cc1	EC50		CEM	MTT	SIV			8.6 µM
Nc1nc2c(ncn2COC(CO)CO)c(=O)[nH]1	EC95	D10 (D341E)		virus yield	Human cytomegalovirus			3.4 µM
COC(=O)N[C@H](C(=O)N1CCCC1c1ncc(-c2ccc(-c3ccc(-c4cnc([C@@H]5CC(C)CN5C(=O)[C@@H](NC(=O)CO)C(C)C)[nH]4)cc3)cc2)[nH]1)C(C)C	EC50	1b	ET	luciferase	Hepatitis C virus		Y93N	0.00013 µM
O=C(NC(=S)Nc1cccc(Br)c1)c1ccccc1COc1ccc(Cl)cc1	EC50	RH beta-gal	Human foreskin fibroblasts (HFF)		Toxoplasma gondii			59 µM
CN1CCN(C(=O)c2ccc3nc4ccccc4c(NC4CCN(Cc5ccccc5)CC4)c3c2)CC1	EC50		BHK	replicon	West Nile virus			15.5 µM
Cn1ncc2c1C(=O)c1cccc(O)c1C2=O	inhibition				Cryptosporidium parvum	50 µM		100%
CC(C)CN(C[C@@H](O)[C@H](Cc1ccccc1)NC(=O)CCCc1c[nH]c2ccccc12)S(=O)(=O)c1ccc(Br)cc1	EC50		CEM	MTT	SIV			8.9 µM
Nc1nc(NC2CC2)c2ncn(C=C3CC3CO)c2n1	EC50		Rat embryo fibroblasts	plaque count	Rat cytomegalovirus			10.7 µM
CCCc1cc(=O)oc2cc(OC(=O)C(C)(C)C)c3c(c12)OC(C)(C)C=C3	EC50	Chicago	CV-1	cytopathic effect	Measles virus			0.6 µg/mL
COc1ccc(OCc2ccccc2C(=O)NC(=S)Nc2ccc(Cl)cc2Cl)cc1	EC50	RH beta-gal	Human foreskin fibroblasts (HFF)		Toxoplasma gondii			31 µM
Cc1ccc(C(C)C)cc1	MLC	CECT2071			Aspergillus fumigatus			>20 µg/mL
Nc1ncnc2c1ncn2[C@@H]1C=C[C@@H](O)[C@H]1O	MIC				Semliki Forest virus			>400 µg/mL
CSc1ccn([C@@H]2O[C@H](CO)[C@@H](O)[C@H]2F)c(=O)n1	EC90		MDBK	PCR	Bovine viral diarrhea virus			>100 µM
CCCc1cc(=O)oc2c3c(c4c(c12)OC(C)(C)[C@H](O)[C@@H]4O)O[C@H](C)[C@@H](C)[C@@H]3O	EC90	Chicago-1	CV-1	virus yield	Measles virus			0.3 µg/mL
Nc1nccc2c1ncn2[C@@H]1C=C(CO)[C@@H](O)[C@H]1O	MIC				Sindbis virus			>400 µg/mL
O[C@@H]1[C@H](O)[C@H](O)CO[C@H]1n1c(Br)nc2cc(Cl)c(Cl)cc21	EC50		HFF	plaque count	Guinea pig cytomegalovirus			27 µM
NC1=NCCN1CC(=O)O	EC50		MRC-5	plaque count	Simian cytomegalovirus			5900 µM
Cc1cn([C@@H]2O[C@H](CO)[C@@H](O)[C@@H]2F)c(=O)nc1N	inhibition	HIRAI	HELF	plaque count	Varicella zoster virus	0.1 µg/mL		100%
CCCCN1C(=O)[C@@H](Cc2ccccc2)NC1=S	inhibition		MT-4	cytopathic effect / XTT	HIV-2	0.1 µg/mL		1%
CSc1cc(-c2ccc(F)cc2)c(C(=O)O)s1	MIC	A-280			Trichophyton mentagrophytes			50 µg/mL
CCOC(=O)/C=C/[C@H](C[C@@H]1CCNC1=O)NC(=O)[C@@H](CC(=O)[C@@H](NC(=O)c1cc(C)on1)C(C)C)Cc1ccc(F)cc1	EC50	Isolate 44	OHIO HELA-I	cytopathic effect / visual reading	Rhinovirus			0.02 µg/mL
O=C1c2cn[nH]c2C(=O)c2c(O)ccc(O)c21	inhibition				Cryptosporidium parvum	50 µM		100%
Nc1nccc2c1ncn2[C@@H]1C[C@H](CO)[C@@H](O)[C@H]1O	MIC	TYPE 1			Reovirus			1 µg/mL
O=c1[nH]c(=O)n([C@@H]2O[C@H](CO)[C@@H](O)[C@@H]2O)cc1/C=C/Br	inhibition	Ohtomo	HELF	plaque count	Varicella zoster virus	0.001 µg/mL		100%
OC[C@H]1O[C@@H](n2c(Br)nc3cc(Cl)c(Cl)cc32)[C@H](O)[C@@H]1O	EC50		HFF	plaque count	Rhesus cytomegalovirus			0.4 µM
Nc1nc2c(ncn2COC(CO)CO)c(=O)[nH]1	EC50	C9207	MRC-5	plaque count	Human cytomegalovirus			6.7 µM
CCOC(=O)c1sc(SC)cc1-c1ccccc1	MIC	A-280			Trichophyton mentagrophytes			>100 µg/mL
O=C1[C@@H](Cc2ccccc2)NC(=S)N1Cc1ccccc1	inhibition		MT-4	cytopathic effect / XTT	HIV-2	10 µg/mL		100%
COc1c2c(c(O)c3ccccc13)C(=O)c1cnn(C)c1C2=O	inhibition				Cryptosporidium parvum	50 µM		90%
CN1CCN(C(=O)c2ccc3c(NCCc4c[nH]c5ccccc45)c4ccccc4nc3c2)CC1	EC50		BHK	replicon	West Nile virus			10.5 µM
O=C(NCCc1ccccc1)Nc1nc2ccc(F)cc2s1	inhibition		MT-4	RT activity	HIV-2	100 µg/mL		97%
CCOC(=O)c1sc(SC)cc1-c1ccc(C)cc1	MIC	A-280			Trichophyton mentagrophytes			>100 µg/mL
CC(=O)ONc1ccc(S(=O)(=O)N(CC(C)C)C[C@@H](O)[C@H](Cc2ccccc2)NC(=O)[C@H](C(C)C)N2C(=O)c3ccccc3C2=O)cc1	EC50		CEM	MTT	SIV			4.1 µM
CCOC(=O)c1sc2cc(-c3ccc([N+](=O)[O-])cc3)oc(=O)c2c1N	MIC	A-280			Trichophyton mentagrophytes			>100 µg/mL
COc1ccc(OCc2ccccc2C(=O)NC(=S)Nc2ccccc2)cc1	EC50	RH beta-gal	Human foreskin fibroblasts (HFF)		Toxoplasma gondii			75 µM
CCn1nc(C)c2c1C(=O)c1ccccc1C2=O	inhibition				Cryptosporidium parvum	10 µM		<10%
Nc1nc2c(ncn2C=C2CC2CO)c(=O)[nH]1	EC90	VR5611 (ganciclovir-susceptible)		plaque count	Human cytomegalovirus			4.3 µM
O=c1[nH]c(=O)n([C@H]2C[C@H](O)[C@@H](CO)O2)cc1Br	inhibition		ME	hybridisation	Murine polyoma virus	0.254 µg/mL		50.4%
CCOC(=O)c1sc2cc(-c3cccnc3)oc(=O)c2c1N	MIC	A-280			Trichophyton mentagrophytes			>100 µg/mL
Nc1nc2c(ncn2COCCO)c(=O)[nH]1	inhibition	Asahikawa	HELF	plaque count	Varicella zoster virus	0.1 µg/mL		0%
O=C(O)P(=O)(O)O	EC50	192	MRC-5		Cytomegalovirus			163.8 µM
Cc1cn([C@@H]2O[C@H](CO)[C@@H](O)[C@@H]2F)c(=O)[nH]c1=O	EC90		H-1		Epstein-Barr virus			0.1 µM
C/C=C/C/C=C/CCC(=O)[C@H]1O[C@H]1C(N)=O	MIC	SJ83 (GSHA)			Escherichia coli			20 µg/mL
CCOC(=O)c1sc(SC)cc1-c1ccc(F)cc1	MIC	A-280			Trichophyton mentagrophytes			>100 µg/mL
CO/N=C1\CN(c2nc3c(cc2F)c(=O)c(C(=O)O)cn3C2CC2)CC1CN	MIC50	37 isolates (minocycline-resistant)			Streptococcus pneumoniae			0.031 µg/mL
CC1(C)N=C(N)N=C(N)N1OCCCOc1cc(Cl)c(Cl)cc1Cl	MIC	3030			Mycobacterium avium complex			1 µg/mL
Nc1nc2c(ncn2C=C2CC2CO)c(=O)[nH]1	EC50		HFF	plaque count	Murine cytomegalovirus			11.6 µM
COc1ccc(OCc2ccccc2C(=O)NC(=S)Nc2cc(Cl)ccc2Cl)cc1	EC50	RH beta-gal	Human foreskin fibroblasts (HFF)		Toxoplasma gondii			57 µM
Nc1ncnc2c1ncn2C[C@@H](CO)OCP(=O)(O)O	MIC				Duck hepatitis B virus			0.5 µg/mL
Cc1ccc(C)n1-c1ccc(C(=O)O)c(O)c1	EC90	93BR020 X4R5 CLADE F	PBMC + MT-2	p24	HIV-1			15.22 µM
Nc1ncnc2c1ncn2[C@@H]1CC[C@@H](O)[C@H]1O	MIC				Sindbis virus			>100 µg/mL
CCCc1cc(=O)oc2cc(OC(=O)CC)cc(O)c12	EC50	Chicago-1	CV-1	virus yield	Measles virus			<40 µg/mL
CC[C@@H](C(C)C)[C@H](O)[C@@H](O)[C@@H](C)[C@H]1CC[C@H]2[C@@H]3CC(=O)[C@@]4(O)C[C@@H](Br)CC[C@]4(C)[C@H]3CC[C@]12C	EC50	AN3739	VERO	plaque count	Pichinde virus			0.6 µM
COc1c(N2C[C@@H]3CCCN[C@@H]3C2)c(F)cc2c(=O)c(C(=O)O)cn(C3CC3)c12	MIC90	250 isolates (penicillin-resistant)			Streptococcus pneumoniae			0.17 µg/mL
CCOC(=O)c1sc2cc(-c3ccc(Br)cc3)oc(=O)c2c1N	MIC	A-280			Trichophyton mentagrophytes			>100 µg/mL
C=CCc1ccc(O)c(OC)c1	MIC90	3189		turbidity	Candida tropicalis			490 µg/mL
CC[C@@H](C(C)C)[C@H](O)[C@@H](O)[C@@H](C)[C@H]1CC[C@H]2[C@@H]3CC(=O)[C@H]4C[C@H](O)[C@H](O)C[C@]4(C)[C@H]3CC[C@]12C	EC50	AN3739	VERO	plaque count	Pichinde virus			3.5 µM
CCCc1cc(=O)oc2cc(OS(=O)(=O)c3ccc(C)cc3)cc(OS(=O)(=O)c3ccc(C)cc3)c12	EC50	CC	CV-1	cytopathic effect	Measles virus			2 µg/mL
CCN(CC)C(=O)c1ccc2nc3ccccc3c(NC3CCN(Cc4ccccc4)CC3)c2c1	EC50		BHK	replicon	West Nile virus			12.5 µM
Nc1nc2c(ncn2COC(CO)CO)c(=O)[nH]1	EC50		HFF	plaque count	Rhesus cytomegalovirus			22 µM
O=c1[nH]c(=O)n([C@H]2C[C@H](O)[C@@H](CO)O2)cc1I	MIC	PRIC			Herpes simplex virus 1			1.1 µg/mL
CCC(=O)C(CCCCCCOc1ccc(OC)cc1Cl)C(=O)CC	inhibition	SMITH	MEF	plaque count	Mouse cytomegalovirus	5 µg/mL		83%
O=C1[C@@H](Cc2ccccc2)NC(=S)N1c1ccccc1	inhibition		MT-4	cytopathic effect / XTT	HIV-2	10 µg/mL		48%
COc1ccc(Cc2cn(Cc3ccc(O)cc3)c(/N=C3/NC(=O)NC3=O)n2)cc1	MIC	ATCC 18824			Saccharomyces cerevisiae			>100 µg/mL
Nc1nccc2c1ncn2[C@@H]1CC[C@@H](O)[C@H]1O	MIC				Semliki Forest virus			>100 µg/mL
CCC(CC)[C@H](NC(C)=O)[C@@H]1[C@H](O)[C@@H](C(=O)O)C[C@H]1N=C(N)N	EC50	Influenza A/Beijing/32/92 (H3N2)	MDCK	visual reading	Influenza A virus			0.07 µM
Nc1nc2c(ccn2[C@@H]2C[C@H](CO)[C@@H](O)[C@@H]2O)c(=O)[nH]1	MIC	A21			Coxsackie virus			>100 µg/mL
CC(C)CN(C[C@@H](O)[C@H](Cc1ccccc1)NC(=O)CCN1C(=O)c2ccccc2C1=O)S(=O)(=O)c1ccc(Br)cc1	EC50		CEM	MTT	SIV			3.8 µM
O=C(NCCc1ccccc1)Nc1nc2ccc(Cl)cc2s1	inhibition		MT-4	RT activity	HIV-2	1 µg/mL		79%
Cc1cn([C@@H]2O[C@H](CO)[C@@H](O)[C@@H]2O)c(=O)[nH]c1=O	inhibition	KANNO	HELF	plaque count	Varicella zoster virus	1 µg/mL		100%
O=C(NC(=S)Nc1ccccc1)c1ccccc1COc1ccc(F)cc1	EC50	RH beta-gal	Human foreskin fibroblasts (HFF)		Toxoplasma gondii			109 µM
O=C(O)P(=O)(O)O	inhibition	AD169	HFF	hybridisation	Cytomegalovirus	100 µM		41.6%

A second listing of 5 rows from above:

{"smiles": "O=C(NC(=S)Nc1ccccc1)c1ccccc1COc1ccc(F)cc1", "read-out": "EC50", "strain or isolate": "RH beta-gal", "cells": "Human foreskin fibroblasts (HFF)", "species": "Toxoplasma gondii", "result": "109 µM"}
{"smiles": "CCC(CC)[C@H](NC(C)=O)[C@@H]1[C@H](O)[C@@H](C(=O)O)C[C@H]1N=C(N)N", "read-out": "EC50", "strain or isolate": "Influenza A/Beijing/32/92 (H3N2)", "cells": "MDCK", "read by": "visual reading", "species": "Influenza A virus", "result": "0.07 µM"}
{"smiles": "CSc1cc(-c2ccc(Br)cc2)c(C(=O)O)s1", "read-out": "MIC", "strain or isolate": "A-280", "species": "Trichophyton mentagrophytes", "result": "50 µg/mL"}
{"smiles": "OC[C@H]1O[C@@H](n2c(Br)nc3cc(Cl)c(Cl)cc32)[C@H](O)[C@@H]1O", "read-out": "EC50", "cells": "HFF", "read by": "plaque count", "species": "Rhesus cytomegalovirus", "result": "0.4 µM"}
{"smiles": "CN1C(=O)[C@@H](Cc2ccccc2)NC1=S", "read-out": "inhibition", "cells": "MT-4", "read by": "cytopathic effect / XTT", "species": "HIV-2", "dose": "1 µg/mL", "result": "0%"}